The results in this text go back to US10100076B2, “Modified nucleosides for the treatment of viral infections and abnormal cellular proliferation” (priority 2000, dated 2018).

Where two headings read alike, the source gives them in different places. Which two values form the index is not stated here.

Holding throughout (format): cell-based
In series [1] the test system is Influenza B.
A further series has as its system Influenza A (H1N1). The following applies: Initial Test, Neutral Red.
Series [2] has as its system Influenza B. The following applies: Initial Test, Neutral Red.
The test system of series [3] is Parainfluenza Type 3 Virus. The following applies: Initial Test, Neutral Red.

Turning to `Nc1ccn([C@@H]2O[C@H](CO)C[C@H]2O)c(=O)n1` [β-D-AJ], the results for the “SI (Selectivity Index), Influenza B” value in the series with Influenza B [1] and with Influenza B [2] were 2 and greater than 3.3, respectively. In addition, the “SI (Selectivity Index), Influenza A (H1N1)” value in the series with Influenza A (H1N1) is given as greater than 3.3.
As for `O=c1nc(NO)ccn1[C@@H]1O[C@H](CO)[C@@H](O)[C@H]1O` [β-D-BS], the “SI (Selectivity Index), Influenza A (H1N1)” value in the series on Influenza A (H1N1) is 116. Also, the “SI (Selectivity Index), Influenza B” value in the series with Influenza B [2] was found to be 133. Also, the “SI (Selectivity Index), Parainfluenza Type 3 Virus” value in series [3] is given as 1.
Regarding `OC[C@H]1O[C@@H](n2cnc3c(Cl)ncnc32)[C@H](O)[C@@H]1O` [β-D-DJ], the “SI (Selectivity Index), Influenza B” value in the series on Influenza B [1] is greater than 10; in the series on Influenza B [2], greater than 4.5. For the same molecule, the “SI (Selectivity Index), Parainfluenza Type 3 Virus” value in series [3] is greater than 1.
